Test results taken from paper PMC7954794, “Protein context shapes the specificity of SH3 domain-mediated interactions in vivo” (Nature Communications, 2021).
No dose or concentration is given here for some results.

Key:
Type in all cases: cell-based, Saccharomyces cerevisiae
Design in all cases: key: 0: SH3-independent; 1: SH3-dependent PPIs; 2: SH3-inhibited PPIs
BEM1-2 = test: DHFR-PCA on solid medium, bait BEM1-2 (Fig. 1B); conditions: bait BEM1-2, label = prey
Description: (§1) Supplement 41467_2021_21873_MOESM8_ESM.xlsx, sheet "Fig1B" | column: medsize; medrep; Ratio; Score

ABP1 = test: DHFR-PCA on solid medium, bait ABP1 (Fig. 1B); conditions: bait ABP1, label = prey
Description: as §1

BEM1-1 = test: DHFR-PCA on solid medium, bait BEM1-1 (Fig. 1B); conditions: bait BEM1-1, label = prey
Description: as §1

B1: YCR030C (protein, UniProt P25623 1-870, looked up)
Suppressor of yeast profilin …: MTEQRTKYADSILTTKSPYEATETIRIRLSQVKLLNKDFYLLFKELANLKRNYAQQLRKIIAENEDITKILNAQMIESNVLTPQEMSAFRFNSLGELRNVWDTVIEELKSDLKSSTEYYNTLDQQVVRELKESVENNTSWRESKDLHSKLSKNAASIEHYSKNNENSSHLEEARRQWDQQSPYLFELFETIDYNRLDTLKNCMLRFQTSFSDYLLNTTKECETVMTKFLAFEPQSEIDRFAKDASQYNFQLSSSSKEVVPNNASPASATGARPVSVSNGAANTEREKKSPQKDKRKSAFGNIGHRLASASSSLTHNDLMNNEFSDSTNNSSLKSKKSSHTLRSKVGSIFGRNKTKNKRQQQSSSNSHIQASITETPNNSSTRVSSTATSSIYQKQRRPTYSSSKSNNWTPGEASDTPPLPPHATPKNVDAPVTADTPPAQTFTPSEVPPSTPQQSSPPTAKEPDSSNLPKTVPISISQPPLQPQSKTKPLPVEPASPSISLPTATVDNQPSGQVDSRPLHIRAPALPPSRKQNFIHNRDSQLYDSLPNHGSGATPTSSSLSSIPQERPVSTLSSQITGELRELNPQATGSSTSLVGQSLFQHSSLDTSQFGLNASIAEVLNASFKDGMLQNSQLIGEIALNYLPNSVMNSPLPIGINLRINNGAKFEKVILNQAFIERVAPEEFKVNPSFIDSRTLGAIKYSIKEPIAPIVIHPVWRFESHQASVVLTVKMSPSLPDEISQIVIEDLVVFVNIDGANATSALSKPQGSFSKEKKRITWRFKEPVVLTRNGEGQRLIARFITDGLAHESAKGVITKFTISETDNVALPHSGAGSGITLTCQELDENNPFGGEWLDVNTKRTLTTGNYHGLA
Score (BEM1-2): 1 | Score (ABP1): 0 | Score (BEM1-1): 1

B2: YDR379W (protein, UniProt Q06407 1-1009, looked up)
Rho-type GTPase-activating …: MSADPINDQSSLCVRCNKSIASSQVYELESKKWHDQCFTCYKCDKKLNADSDFLVLDIGTLICYDCSDKCTNCGDKIDDTAIILPSSNEAYCSNCFRCCRCSNRIKNLKYAKTKRGLCCMDCHEKLLRKKQLLLENQTKNSSKEDFPIKLPERSVKRPLSPTRINGKSDVSTNNTAISKNLVSSNEDQQLTPQVLVSQERDESSLNDNNDNDNSKDREETSSHARTVSIDDILNSTLEHDSNSIEEQSLVDNEDYINKMGEDVTYRLLKPQRANRDSIVVKDPRIPNSNSNANRFFSIYDKEETDKDDTDNKENEIIVNTPRNSTDKITSPLNSPMAVQMNEEVEPPHGLALTLSEATKENNKSSQGIQTSTSKSMNHVSPITRTDTVEMKTSTSSSTLRLSDNGSFSRPQTADNLLPHKKVAPSPNKKLSRSFSLKSKNFVHNLKSKTSEMLDPKHPHHSTSIQESDTHSGWGVSSTHTNIRKSKAKKNPVSRGQSDSTIYNTLPQHGNFTVPEFNHKKAQSSLGSISKKQNSNDTATNRRINGSFTSSSSGHHIAMFRTPPLESGPLFKRPSLSSESAHHRSSSLQTSRSTNALLEDDSTKVDATDESATSLEKDFYFTELTLRKLKLDVRELEGTKKKLLQDVENLRLAKERLLNDVDNLTREKDKQSASSRESLEQKENIATSITVKSPSSNSDRKGSISNASPKPRFWKIFSSAKDHQVGDLESQQRSPNSSSGGTTNIAQKEISSPKLIRVHDELPSPGKVPLSPSPKRLDYTPDGSHLYGSSLQARCAYEKSTVPIIIRCCIDRIEKDDIGLNMEGLYRKSGSQTLVEEIENEFAQNNSLHSDTLSPKLNALLNQDIHAVASVLKRYLRKLPDPVLSFSIYDALIDLVRNNQLIERLPLNNDKFLDSPQKVTIYEMVLKSLLEIFKILPVEHQEVLKVLAAHIGKVRRCSERNLMNLHNLSLVFAPSLIHDFDGEKDIVDMKERNYIVEFILGNYRDIFKQA
Score (BEM1-2): 1 | Score (BEM1-1): 0

B3: YER114C (protein)
chain: PMYIAINEYFKRMEDELDMKPGDKIKVITDDEEYKDGWYFGRNLRTNEEGLYPVVFTQKIT
Score (BEM1-2): 1 | Score (BEM1-1): 0

B4: YGR281W (protein, UniProt P53049 1-1477, looked up)
Oligomycin resistance …: MTITVGDAVSETELENKSQNVVLSPKASASSDISTDVDKDTSSSWDDKSLLPTGEYIVDRNKPQTYLNSDDIEKVTESDIFPQKRLFSFLHSKKIPEVPQTDDERKIYPLFHTNIISNMFFWWVLPILRVGYKRTIQPNDLFKMDPRMSIETLYDDFEKNMIYYFEKTRKKYRKRHPEATEEEVMENAKLPKHTVLRALLFTFKKQYFMSIVFAILANCTSGFNPMITKRLIEFVEEKAIFHSMHVNKGIGYAIGACLMMFVNGLTFNHFFHTSQLTGVQAKSILTKAAMKKMFNASNYARHCFPNGKVTSFVTTDLARIEFALSFQPFLAGFPAILAICIVLLIVNLGPIALVGIGIFFGGFFISLFAFKLILGFRIAANIFTDARVTMMREVLNNIKMIKYYTWEDAYEKNIQDIRTKEISKVRKMQLSRNFLIAMAMSLPSIASLVTFLAMYKVNKGGRQPGNIFASLSLFQVLSLQMFFLPIAIGTGIDMIIGLGRLQSLLEAPEDDPNQMIEMKPSPGFDPKLALKMTHCSFEWEDYELNDAIEEAKGEAKDEGKKNKKKRKDTWGKPSASTNKAKRLDNMLKDRDGPEDLEKTSFRGFKDLNFDIKKGEFIMITGPIGTGKSSLLNAMAGSMRKTDGKVEVNGDLLMCGYPWIQNASVRDNIIFGSPFNKEKYDEVVRVCSLKADLDILPAGDMTEIGERGITLSGGQKARINLARSVYKKKDIYLFDDVLSAVDSRVGKHIMDECLTGMLANKTRILATHQLSLIERASRVIVLGTDGQVDIGTVDELKARNQTLINLLQFSSQNSEKEDEEQEAVVAGELGQLKYESEVKELTELKKKATEMSQTANSGKIVADGHTSSKEERAVNSISLKIYREYIKAAVGKWGFIALPLYAILVVGTTFCSLFSSVWLSYWTENKFKNRPPSFYMGLYSFFVFAAFIFMNGQFTILCAMGIMASKWLNLRAVKRILHTPMSYIDTTPLGRILNRFTKDTDSLDNELTESLRLMTSQFANIVGVCVMCIVYLPWFAIAIPFLLVIFVLIADHYQSSGREIKRLEAVQRSFVYNNLNEVLGGMDTIKAYRSQERFLAKSDFLINKMNEAGYLVVVLQRWVGIFLDMVAIAFALIITLLCVTRAFPISAASVGVLLTYVLQLPGLLNTILRAMTQTENDMNSAERLVTYATELPLEASYRKPEMTPPESWPSMGEIIFENVDFAYRPGLPIVLKNLNLNIKSGEKIGICGRTGAGKSTIMSALYRLNELTAGKILIDNVDISQLGLFDLRRKLAIIPQDPVLFRGTIRKNLDPFNERTDDELWDALVRGGAIAKDDLPEVKLQKPDENGTHGKMHKFHLDQAVEEEGSNFSLGERQLLALTRALVRQSKILILDEATSSVDYETDGKIQTRIVEEFGDCTILCIAHRLKTIVNYDRILVLEKGEVAEFDTPWTLFSQEDSIFRSMCSRSGIVENDFENRS
Score (BEM1-2): 1 | Score (BEM1-1): 0

B5: YBR102C (protein, UniProt P38261 1-753, looked up)
Exocyst complex component …: MVEFSLKKARNNWKHVKKSASSPAKQKTPPSPAKPKQKTKKNPYSDLKDPATSYTLPTINARERSRVATSMQRRLSIHNTNYAPPTLDYSMPLPDMPNMIVPNDNVDSSHNNSSFTTENESVSSKGPSNSLNLSTADLSLNDSSYNKVPARSAMRNTVNPSGSNDPFNNSTSLRKMLANPHFNAKDFVHDKLGNASAITIDKFTSNLTDLSIQVQEEVKLNINKSYNEIMTVNNDLNVAMLELKRVRANINDLNEVLDQCTKIAEKRLQLQDQIDQERQGNFNNVESHSNSPALLPPLKAGQNGNLMRRDRSSVLILEKFWDTELDQLFKNVEGAQKFINSTKGRHILMNSANWMELNTTTGKPLQMVQIFILNDLVLIADKSRDKQNDFIVSQCYPLKDVTVTQEEFSTKRLLFKFSNSNSSLYECRDADECSRLLDVIRKAKDDLCDIFHVEEENSKRIRESFRYLQSTQQTPGRENNRSPNKNKRRSMGGSITPGRNVTGAMDQYLLQNLTLSMHSRPRSRDMSSTAQRLKFLDEGVEEIDIELARLRFESAVETLLDIESQLEDLSERISDEELMLLNLISLKIEQRREAISSKLSQSILSSNEIVHLKSGTENMIKLGLPEQALDLFLQNRSNFIQDLILQIGSVDNPTNYLTQLAVIRFQTIKKTVEDFQDIFKELGAKISSILVDWCSDEVDNHFKLIDKQLLNDEMLSPGSIKSSRKQIDGLKAVGLDFVYKLDEFIKKNSDKIR
Score (BEM1-2): 1 | Score (BEM1-1): 1

B6: YKL051W (protein, UniProt P35735 1-353, looked up)
Protein SFK1: MIQFKSPGNWLFIVPWIAFIPWYGMLIAMLICWASQGHPIYWFMHSEQFPVYISDIGATNLRPLFISCAGWQGLGYVITVALEFFQRSGYLPFQLKKKDPSISDSTSYAEKLHSGKYLMPPYYTKDERNLIFAAFVLGSIGELALLFSSIFSTALYHRVHIAMVSVFVVFMFLSTCCLIAEYFLMGRHYASVHPLASPHFNPQSSEKSFNQDYNTVDELPWYKWKGHVWNKFTISATLKVIWLTLAVVWAICFGAINDRSKSACFEWLLAFWFGIIFMILSADFYLGGRYRQSRYFNHVESFSGYYKYDKALGLYHSEDVLPSDDNAGVIATETASSNIYNNSSSNESIQVVV
Score (BEM1-2): 1 | Score (BEM1-1): 1

B7: YBL085W (protein, UniProt P38041 1-980, looked up)
BEM1-interacting protein 1: MSLEGNTLGKGAKSFPLYIAVNQYSKRMEDELNMKPGDKIKVITDDGEYNDGWYYGRNLRTKEEGLYPAVFTKRIAIEKPENLHKSPTQESGNSGVKYGNLNDSASNIGKVSSHQQENRYTSLKSTMSDIDKALEELRSGSVEQEVSKSPTRVPEVSTPQLQDEQTLIQEKTRNEENTTHDSLFSSTADLNLSSESLKNISKSNISTKSLEPSSESVRQLDLKMAKSWSPEEVTDYFSLVGFDQSTCNKFKEHQVSGKILLELELEHLKELEINSFGIRFQIFKEIRNIKSAIDSSSNKLDADYSTFAFENQAAQLMPAATVNRDEIQQQISSKCNKLSSESSDRKSSSVTTELQRPSSVVVNPNFKLHDPAEQILDMTEVPNLFADKDIFESPGRAPKPPSYPSPVQPPQSPSFNNRYTNNNARFPPQTTYPPKNKNPTVYSNGLIPNSSTSSDNSTGKFKFPAMNGHDSNSRKTTLTSATIPSINTVNTDESLPAISNISSNATSHHPNRNSVVYNNHKRTESGSSFVDLFNRISMLSPVKSSFDEEETKQPSKASRAVFDSARRKSSYGHSRDASLSEMKKHRRNSSILSFFSSKSQSNPTSPTKQTFTIDPAKMTSHSRSQSNSYSHARSQSYSHSRKHSLVTSPLKTSLSPINSKSNIALAHSETPTSSNNKEAVSQPSEGKHKHKHKHKSKHKHKNSSSKDGSSEEKSKKKLFSSTKESFVGSKEFKRSPSELTQKSTKSILPRSNAKKQQTSAFTEGIRSITAKESMQTADCSGWMSKKGTGAMGTWKQRFFTLHGTRLSYFTNTNDEKERGLIDITAHRVLPASDDDRLISLYAASLGKGKYCFKLVPPQPGSKKGLTFTEPRVHYFAVENKSEMKAWLSAIIKATIDIDTSVPVISSYATPTIPLSKAQTLLEEARLQTQLRDAEEEEGRDQFGWDDTQNKRNSNYPIEQDQFETSDYLESSAFEYPGGRL
Score (BEM1-2): 1 | Score (BEM1-1): 1
